{
  "source": "patent US20260335320A1",
  "about": "“ANTI-VIRULENCE AGENTS AND METHODS FOR THE TREATMENT OF PATHOGENIC BACTERIUM” (priority 2023, published 2026)",
  "key": {"[1]": {"tested_on": "P. aeruginosa strain PA14", "assay": "P. aeruginosa-induced cytotoxicity of A549 cells (LDH release)", "settings": "Pseudomonas aeruginosa, PA14, A549, in Homo sapiens, 5.5 h, read-out: reduction of cytotoxicity induced by P. aeruginosa strain PA14"}, "[2]": {"tested_on": "P. aeruginosa strain PA01", "assay": "P. aeruginosa-induced cytotoxicity of A549 cells (LDH release)", "settings": "5.5 hours"}},
  "data": [
    {"smiles": "CCCCCCc1cc2cc(-c3nnc(-c4ccc(C)cc4)o3)c(=O)oc2cc1O", "note": "[BFA1, 6-HEXYL-7-HYDROXY-3-[5-(4-METHYLPHENYL)-1,3,4-OXADIAZOL-2-YL]-2H-CHROMEN-2-ONE]", "values": [
      {"measurement": "inhibition at 12.5 µM", "setting": "[1]", "value": "~50", "unit": "%"},
      {"measurement": "inhibition at 25 µM", "setting": "[1]", "value": "~80", "unit": "%"},
      {"measurement": "inhibition of cytotoxicity induced by P. aeruginosa strain PA01", "setting": "[2]", "value": "able to inhibit the cytotoxicity induced by P. aeruginosa strain PA01"}
    ]}
  ]
}
